# PSTVd loop 15 mutant pool in Nicotiana benthamiana

The pool varies loop 15 of the PSTVd intermediate strain in the pattern GGAAACCGNNNNNNC; wild type is GGAAACCGCUACUAC (upper and lower strand joined, each 5' to 3', the first 7 letters being the upper strand, closing pairs included).

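A pool of all variants was put on leaves of three Nicotiana benthamiana plants. Samples came from the inoculated region at 5 days, the leaf margin at 10 and upper systemic leaves at 12.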

Numbers give reads per thousand; 0 = not seen among the reads, higher = more abundant.
Each value is the mean of three plants.
"Pool" is the share in the plasmid pool used as inoculum, on the same scale.
The inoculated region was read from the minus strand, the other sites from the plus strand.
IR is the inoculated region, LM the leaf margin, Sys the systemic leaves.

GGAAACCGCAGAAAC (pool 0.208) gave IR 0.107; LM 0; Sys 0.
GGAAACCGAGACGCC (pool 0.176) gave IR 0.0632; LM 0; Sys 0.00537.
GGAAACCGUCUCCCC (pool 0.208) gave IR 0.0623; LM 0; Sys 0.
GGAAACCGGCUUGGC (pool 0.176) gave IR 0.141; LM 0; Sys 0.00760.
GGAAACCGACCUACC (pool 0.144) gave IR 0.0986; LM 0.0134; Sys 0.
GGAAACCGGUGCGUC (pool 0.224) gave IR 0.126; LM 0.0134; Sys 0.
GGAAACCGGGACCAC (pool 0.240) gave IR 0.0795; LM 0.0121; Sys 0.
GGAAACCGAGUUGAC (pool 0.176) gave IR 0.131; LM 0.0121; Sys 0.00760.
GGAAACCGUGGGGGC (pool 0.176) gave IR 0.0924; LM 0.00668; Sys 0.
GGAAACCGUCCCAGC (pool 0.0640) gave IR 0.104; LM 0.0121; Sys 0.
GGAAACCGCAGUCUC (pool 0.192) gave IR 0.0739; LM 0.0128; Sys 0.00537.
GGAAACCGCCUCCCC (pool 0.128) gave IR 0.0985; LM 0.00539; Sys 0.
GGAAACCGAACUUCC (pool 0.256) gave IR 0.117; LM 0.0316; Sys 0.
GGAAACCGAUAGGUC (pool 0.176) gave IR 0.318; LM 0.0926; Sys 0.0898.
GGAAACCGCGGGGUC (pool 0.272) gave IR 0.127; LM 0; Sys 0.
GGAAACCGAUAUAAC (pool 0.192) gave IR 0.358; LM 0.106; Sys 0.0972.
GGAAACCGGCAGACC (pool 0.192) gave IR 0.112; LM 0.00668; Sys 0.
GGAAACCGGAGUUAC (pool 0.192) gave IR 0.102; LM 0; Sys 0.
GGAAACCGAGGAGGC (pool 0.176) gave IR 0.111; LM 0.00742; Sys 0.
GGAAACCGGGAAGAC (pool 0.272) gave IR 0.120; LM 0.0187; Sys 0.
GGAAACCGCUACUAG (pool 0.0320) gave IR 0.257; LM 0.108; Sys 0.0837.
GGAAACCGCUCCGAC (pool 0.336) gave IR 0.118; LM 0.0739; Sys 0.0158.
GGAAACCGGAUGCCC (pool 0.208) gave IR 0.168; LM 0; Sys 0.
GGAAACCGGCGAAGC (pool 0.288) gave IR 0.0806; LM 0.00539; Sys 0.
GGAAACCGGUAUAAC (pool 0.240) gave IR 0.341; LM 0.0989; Sys 0.0619.

Extract of 2 entries:

GGAAACCGUCCCAGC (pool 0.0640) gave IR 0.104; LM 0.0121; Sys 0.
GGAAACCGUCUCCCC (pool 0.208) gave IR 0.0623; LM 0; Sys 0.

With 43,870-66,106 reads a sample, very low values are single reads.
Sequences that differ at fixed positions probably stem from PCR or sequencing errors, and defective variants can be carried along by functional ones.
For reference, wild type rose from 33.9 per thousand in the pool to 202, 200, 159 (inoculated region), 724, 746, 710 (leaf margin) and 856, 883, 880 (systemic leaves).

From the data files of Wu et al. 2024, doi:10.1371/journal.ppat.1012142.